Tests used:
E. coli = test: MIC, agar dilution method, ESKAPE strains; assay type: cell-based, Escherichia coli
K. pneumoniae = test: MIC, agar dilution method, ESKAPE strains; assay type: cell-based, Klebsiella pneumoniae

Structure (SMILES): COc1ccc2nccc(-n3cc(CCNCc4ccc5c(c4)NC(=O)CS5)nn3)c2n1 [BDM71403 (10a)]
- MIC improvement over FQs (E. coli): 32 fold
- Ciprofloxacin MIC/BDM71403 MIC (E. coli; E. coli 9003, BLSE): 16 µg/mL
- Ciprofloxacin MIC/BDM71403 MIC (E. coli; E. coli 10269, NDM-1): 32 µg/mL
- Ciprofloxacin MIC/BDM71403 MIC (E. coli; E. coli 10273, KPC-2): > 32 µg/mL
- Ciprofloxacin MIC/BDM71403 MIC (E. coli; E. coli 10385, NDM-1): > 533 µg/mL
- Ciprofloxacin MIC/BDM71403 MIC (E. coli; E. coli 10386, NDM-1): > 32 µg/mL
- Ciprofloxacin MIC/BDM71403 MIC (K. pneumoniae; K. pneumoniae 10270, VIM): > 8 µg/mL
- Ciprofloxacin MIC/BDM71403 MIC (K. pneumoniae; K. pneumoniae 10272, 0XA-48): 0.25 µg/mL
- Ciprofloxacin MIC/BDM71403 MIC (K. pneumoniae; K. pneumoniae 10277, KPC-2): 16 µg/mL

— article PMC11489056, “Molecular mechanism of a triazole-containing inhibitor of Mycobacterium tuberculosis DNA gyrase” (iScience, 2024)
